From publication PMC10812672, “Short Antimicrobial Peptide Derived from the Venom Gland Transcriptome of Pamphobeteus verdolaga Increases Gentamicin Susceptibility of Multidrug-Resistant Klebsiella pneumoniae” (Antibiotics, 2023) come the findings set out here.

Ends that are not written are not given here.

The data set has as its system MDR K. pneumoniae. The data set is classed as cell-based, Klebsiella pneumoniae. The protocol:
Given the intermediate resistance to gentamicin, an isobologram analysis was used as a proof-of-concept to evaluate the interaction between PvAMP66 and the antibiotic. The growth inhibition of the clinical isolate was measured using peptide concentrations of 0.10–100 µM, and gentamicin concentrations of 0.10–50 µM (Supplementary Figure S10). Combined IC50 values were calculated and plotted in a graph with a secant line representing the IC50 values for PvAMP66 and gentamicin when used alone (Figure 2a). […] The concentrations adjacent to the aforementioned data point were evaluated. […] Additionally, a Fractional Inhibitory Concentration Index (FICI) of 0.59 was obtained.
For the isobologram analysis concentrations, ranges of 1.56 µM to 200 µM of the peptide and 0.07 µM to 100 µM of the gentamicin were used. The experiments were conducted in triplicate and repeated in two independent assays. The IC50 for each combination was determined using either logarithmic or linear regression. Then, when achieving 50% growth inhibition, the concentrations of the peptide and gentamicin were recorded and used to create an isobologram graph with a ‘peptide concentration’ vs. ‘gentamicin concentration’ plot. Within the graph, both axes were connected in line with an origin at the IC50 value of the peptide and gentamicin alone in the Y and X-axis, respectively. The presence of data distributed below the line indicated a synergistic interaction, data distributed above or close to the line in a parallel fashion represented an additive interaction, and finally, data distributed above the line represented an antagonistic interaction. The fractional inhibitory concentration index was calculated as follows: FICI=Combined MICAntibiotic/MICAntibiotic+Combined MICPeptide/MICPeptide

Take WKKIKKFF-NH2 [PvAMP66]: the “Fractional Inhibitory Concentration Index (FICI)” value (PvAMP66 12.50 µM with gentamicin 4.70 µM, additive) came to 0.59. Take `CNC(C)C1CCC(N)C(OC2C(N)CC(N)C(OC3OCC(C)(O)C(NC)C3O)C2O)O1` (stereo not drawn) [Gentamicin, gentamicin]: the “fold reduction in the MIC” value (combination of 4.70 µM gentamicin and 12.50 µM PvAMP66 vs alone) was 10.64 fold. Besides, the “fold reduction in the IC50 for gentamicin” value (combination vs gentamicin alone) is recorded as 10.68 fold.
